Experimental findings from ChEMBL document CHEMBL3286128 (J Med Chem, 2014) are described below.

The subject of experiment [1] is Human immunodeficiency virus 1. The experiment can be described thus: Ratio of EC50 for raltegravir-resistant HIV-1 harboring integrase Y143R mutant infected in human HOS cells to EC50 for HIV-1 harboring integrase wild type integrase infected in human HOS cells. It is filed as functional.
Experiment [2] deals with Human immunodeficiency virus type 1 integrase (Human immunodeficiency virus 1, UniProt Q7ZJM1).

pIC50: −log10 of the molar value.

`O=C(NCc1ccc(F)cc1F)c1c(Nc2ccccc2)c2cccnc2n(O)c1=O`: the “Ratio EC50” value in experiment [1] was determined as 2.
Usually pIC50 stands for the negative decadic logarithm of the IC50, by convention in mol/L. A high value points to a low IC50. In turn, `COC(=O)[C@H](C)Nc1c(C(=O)NCc2ccc(F)cc2F)c(=O)n(O)c2ncccc12` had a pIC50 in experiment [2] of 5.13.
Same read-out and setting: the result for `COC(=O)[C@@H](Nc1c(C(=O)NCc2ccc(F)cc2F)c(=O)n(O)c2ncccc12)c1ccccc1` reads 4.78.
